Anti-infective test results gathered from many reports (values: NIAID ChemDB through PubChem).

Shared fields: whole-cell or culture tests; organism: HIV-1; method: p24 / ELISA; read-out: EC50

An empty or dashed field is not shown.

SMILES	cells	changes	conditions	strain	result
Cc1cc(=O)c2ccc(N=C=S)cc2o1	PBMC			NL4-3	0.188 µM
Cc1cn([C@H]2C[C@H](N=[N+]=[N-])[C@@H](CO)O2)c(=O)[nH]c1=O	H9			IIIB	<20 µM
C1CNCCNCCCN(CCCN2CCCNCCNCCCNCC2)CCNC1	MT-4			A012B	0.12 µM
CC(C)=CCC/C(C)=C/CC[C@@]1(C)C=Cc2c(cc(C)c(C(=O)O)c2O)O1	H9			IIIB	0.00567 µg/mL
Cc1cn([C@H]2C[C@H](OS(C)(=O)=O)[C@@H](CO)O2)c(=O)[nH]c1=O	C8166			RF	>100 µM
Cc1cn([C@H]2C[C@H](N=[N+]=[N-])[C@@H](CO)O2)c(=O)[nH]c1=O	MT-2			IIIB	0.00726 µM
CC(C)C1=C2[C@H]3CC[C@@H]4[C@@]5(C)CC[C@H](OC(=O)[C@H]6C[C@@H](C(=O)O)C6(C)C)C(C)(C)[C@@H]5CC[C@@]4(C)[C@]3(C)CC[C@@]2(c2ncc(-c3ccc(F)cc3)[nH]2)CC1=O	MT-2			92HT599	<0.01 µM
Nc1ccn([C@@H]2O[C@H](CO)C[C@H]2F)c(=O)n1	H9			IIIB	1 µg/mL
Cc1cn([C@H]2C[C@H](N=[N+]=[N-])[C@@H](CO)O2)c(=O)[nH]c1=O	PBMC			KM018	0.253 µM
Cc1cn([C@H]2C[C@H](N=[N+]=[N-])[C@@H](CO)O2)c(=O)[nH]c1=O	PBL(PHA STIM.) + PBL			CD 451	<0.2 µM
CCCCCC/C=C\C/C=C\CCCCCCC(=O)O[C@H](COC(=O)CCCCCCCCCCCCCCC)COP(=O)([O-])OCC[N+](C)(C)C	MOLT-4				>50 µM
NC(=O)P(=O)(O)OCC1O[C@H](n2ccc(N)nc2=O)CS1	MT-4			GKV-4046	29.7 µM
CCc1cc(NCc2nc3c(C)ccc(C)c3o2)c(=O)[nH]c1C	MT-4			IIIB	<0.05 µM
C[C@H](Cn1cnc2c(N)ncnc21)OCP(=O)(O)O				ETH2220	0.72 µM
CCO/N=C(\c1ccc(Br)cc1)C1CCN(C2(C)CCN(C(=O)c3c(C)cc[n+]([O-])c3C)CC2)CC1	PBMC				>0.16 µM
Nc1ccn([C@H]2CC[C@@H](CO)O2)c(=O)n1	MT-2	RT-K65R		HxB2-MT 65 (RT-K65R	0.31 µM
Cc1cc2c(C(C)C)c(O)c(O)c(C=O)c2c(O)c1-c1c(C)cc2c(C(C)C)c(O)c(O)c(C=O)c2c1O	MT-4			IIIB	1 µg/mL
C=C(C)[C@@H]1CC[C@]2(C(=O)OC)CC[C@]3(C)[C@H](CC[C@@H]4[C@@]5(C)C[C@@H](F)[C@H](OC(=O)CC(C)(C)C(=O)O)C(C)(C)[C@@H]5CC[C@]43C)[C@@H]12	MT-4			NL4-3	>16 µM
CN[C@@H]1C[C@H]2O[C@@](C)([C@@H]1OC)n1c3ccccc3c3c4c(c5c6ccccc6n2c5c31)C(=O)N[C@@H]4O	MOLT-4/HIV-1 + MOLT-4				>0.08 µM
Cc1cn([C@H]2C[C@H](F)[C@@H](CO)O2)c(=O)[nH]c1=O	H9			IIIB	0.01 µM
CC(C)C1=C2[C@H]3CC[C@@H]4[C@@]5(C)CC[C@H](OC(=O)[C@H]6C[C@@H](C(=O)O)C6(C)C)C(C)(C)[C@@H]5CC[C@@]4(C)[C@]3(C)CC[C@@]2(Cc2ncc(-c3ccc(Cl)cc3)n2CCN(C)C)CC1=O	MT-2			92HT599	0.01–0.05 µM
CCCCCC/C=C\C/C=C\CCCCCCC(=O)O[C@H](COC(=O)CCCCCCCCCCCCCCC)COP(=O)(O)OC1[C@@H](O)[C@H](O)C(O)[C@H](O)[C@@H]1O	H9				<30 µM
CC(C)C1=C2[C@H]3CC[C@@H]4[C@@]5(C)CC[C@H](OC(=O)[C@H]6C[C@@H](C(=O)O)C6(C)C)C(C)(C)[C@@H]5CC[C@@]4(C)[C@]3(C)CC[C@@]2(c2ncc(-c3ccccc3)[nH]2)CC1=O	MT-2			92HT599	<0.01 µM
Cc1cn([C@H]2C[C@H](F)[C@@H](CO)O2)c(=O)[nH]c1=O	MT-4			IIIB	0.005 µM
CC(=O)O[C@H]1C[C@H](n2ccc(=O)[nH]c2=O)O[C@@H]1COP(=O)(OCC(Cl)(Cl)Cl)OCC(Cl)(Cl)Cl	C8166			RF	>100 µM
CCCCCCNC(=O)OCCCCCCNC(=O)OC1CCN(C(=O)Oc2ccc(Oc3ccccc3)cc2)CC1	MT-4			IIIB	1.31 µM
CCc1cc(NCc2nc3c(Cl)ccc(Cl)c3o2)c(=O)[nH]c1C	MT-4			IIIB	<0.05 µM
CC1(C)CC[C@]2(C(=O)O)CC[C@]3(C)C(=CC[C@@H]4[C@@]5(C)CC[C@H](O[C@@H]6O[C@H](CO)[C@H](O[C@@H]7O[C@H](OO)[C@H](O)[C@H](O)[C@H]7O)[C@H](O)[C@H]6O)C(C)(C)[C@@H]5CC[C@]43C)[C@@H]2C1	PBMC			BaL	1.96 µg/mL
CCOP(=O)(COc1ccc(C[C@H](NC(=O)O[C@H]2CO[C@H]3OCC[C@H]32)[C@H](O)CN(CC(C)C)S(=O)(=O)c2ccc(OC)cc2)cc1)OCC	MT-2	L441P		IIIB	0.008 µM
CC[C@@]1(O)C(=O)OCc2c1cc1n(c2=O)Cc2cc3c([N+](=O)[O-])cccc3nc2-1	U-937			IIIB	0.02 µM
Cc1cn([C@H]2C[C@H](N=[N+]=[N-])[C@@H](CO)O2)c(=O)[nH]c1=O	MT-2	K112M K113E V128I M200I H219P I401T R409K D437N L441P R41K		IIIB	0.008 µM
CCO[C@H]1C[C@H](n2cc(C)c(=O)[nH]c2=O)O[C@@H]1COP(=O)(OCC(Cl)(Cl)Cl)OCC(Cl)(Cl)Cl	MT-2			RF	30 µM
Nc1ncnc2c1ncn2[C@H]1C=C(F)[C@@H](CO)O1	H9			IIIB	1 µg/mL
NC[C@@H]1O[C@H](O[C@H]2[C@@H](O)[C@H](O[C@@H]3[C@@H](O)[C@H](N)C[C@H](N)[C@H]3O[C@H]3O[C@H](CN)[C@@H](O)[C@H](O)[C@H]3N)O[C@@H]2CO)[C@H](N)[C@@H](O)[C@@H]1O	U1/HIV-1 + U1		chronic infection		<100 µM
CC(=O)O[C@H]1C[C@H](n2cc(C)c(=O)[nH]c2=O)O[C@@H]1COP(=O)(OCC(Cl)(Cl)Cl)OCC(Cl)(Cl)Cl	MT-2			RF	30 µM
COC(=O)N[C@H](C(=O)N[C@@H](Cc1ccccc1)[C@@H](O)CN(Cc1ccc(-c2ccccn2)cc1)NC(=O)[C@@H](NC(=O)OC)C(C)(C)C)C(C)(C)C	MT-2	I401T R409K D437N		IIIB	0.0023 µM
Cc1cc(Cl)nc(C)c1C(=O)NCC[C@@H](C)N1CCC(N(Cc2ccsc2)C(=O)NCCCC(=O)O)CC1	PBMC				0.69 µM
N#C/C=C1/c2cc(S)cc([N+](=O)[O-])c2-c2c1cc(S(=O)(=O)NCc1ccccc1)cc2[N+](=O)[O-]	C8166			IIIB	74.34 µM
Cc1nnc(C(C)C)n1C1C[C@H]2CC[C@@H](C1)N2CC[C@H](NC(=O)C1CCC(F)(F)CC1)c1ccccc1	PBMC			CC1/85 maraviroc-resistant	>20 µg/mL
C=C(C)[C@]12C[C@@H](COc3ccccc3)[C@@]34OC5(OC1[C@@H]3[C@@H]1O[C@]1(CO)[C@@H](O)[C@]1(O)[C@@H](Oc3ccccc3)[C@@H](C)[C@H]([C@H](C)CCCCC[C@@H]5O)[C@]14C)O2	PBMC			BaL	0.0000425 µM
CC(=O)O[C@@]12C[C@@H](C)[C@@]3(O)[C@@H](C=C(CO)C[C@]4(O)C(=O)C(C)=C[C@@H]34)[C@@H]1C2(C)C	C8166			IIIB	3.701 µM
O=c1ccc2cc(O)c(O)cc2o1	H9			IIIB	2.51 µg/mL
c1cc(CN2CCCNCCNCCCNCC2)ccc1CN1CCCNCCNCCCNCC1	PBMC			98.6 (subtype B)	0.008 µg/mL
Cc1ccnc2c1NC(=O)c1cccnc1N2C1CC1	C8166	V108I		NL4-3	0.44 µM

The first 5 rows once more:

SMILES | cells | changes | conditions | strain | result
Cc1cc(=O)c2ccc(N=C=S)cc2o1 | PBMC |  |  | NL4-3 | 0.188 µM
Cc1cn([C@H]2C[C@H](N=[N+]=[N-])[C@@H](CO)O2)c(=O)[nH]c1=O | H9 |  |  | IIIB | <20 µM
C1CNCCNCCCN(CCCN2CCCNCCNCCCNCC2)CCNC1 | MT-4 |  |  | A012B | 0.12 µM
CC(C)=CCC/C(C)=C/CC[C@@]1(C)C=Cc2c(cc(C)c(C(=O)O)c2O)O1 | H9 |  |  | IIIB | 0.00567 µg/mL
Cc1cn([C@H]2C[C@H](OS(C)(=O)=O)[C@@H](CO)O2)c(=O)[nH]c1=O | C8166 |  |  | RF | >100 µM

Lines come from different laboratories, so protocols vary. ECn is the concentration giving n% inhibition of infection, replication or growth. a–b is a range or a potency band.